Measurements reported in PubChem BioAssay AID1259414 (Drosophila RNAi Screening Center, 2018)

Purpose: 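Host factors increasing or decreasing Wolbachia levels in cultured fly cells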 (primary screen)
System: Drosophila JW18 cells infected with Wolbachia
Knock-down reagent: long dsRNA against Drosophila genes, 0.25 µg dsRNA per well of a 384-well plate
Timing: 5 days
Challenge: cells persistently infected with Wolbachia before knock-down; no added drug
Detection: 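Automated imaging of bacterial rRNA staining divided by host cell count, reported as plate-normalised robust z-score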
Reading the numbers: Wolbachia per cell robust z: higher = more Wolbachia per host cell than the plate typical
Hit rule: 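Active if absolute robust z reaches 1.5 in two or more of three replicates, leaving out multi- or no-target dsRNAs, genes unexpressed in JW18 and A1 wells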
The screen tested about 24,000 reagents; shown is a random part of those that have a named target and a result. In the full data, about 1,210 (5%) are marked active. 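Inactive calls also include excluded dsRNAs with several or no targets, genes unexpressed in JW18, and well A1, regardless of score.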 The numbers tell different reagents against one gene apart.

For mael, what does the deposit list?
Wolbachia per cell robust z, rep 1: -0.0839; Wolbachia per cell robust z, rep 2: -2.93; Wolbachia per cell robust z, rep 3: -1.08; Call: inactive

For CG17896 #1, how do the results read?
Wolbachia per cell robust z, rep 1: -2.93; Wolbachia per cell robust z, rep 2: -0.201; Wolbachia per cell robust z, rep 3: -0.148; Call: inactive

With CG17896 #2, what does the deposit list?
Wolbachia per cell robust z, rep 1: 0.524; Wolbachia per cell robust z, rep 2: 0.994; Wolbachia per cell robust z, rep 3: 1.5; Call: inactive

For Egm #1, how do the results read?
Wolbachia per cell robust z, rep 1: -6.74; Wolbachia per cell robust z, rep 2: -0.0502; Wolbachia per cell robust z, rep 3: -1.34; Call: inactive

With Egm #2, how do the results read?
Wolbachia per cell robust z, rep 1: -1.75; Wolbachia per cell robust z, rep 2: -5.55; Wolbachia per cell robust z, rep 3: -3.22; Call: active

For CG31342 #1, what does the deposit list?
Wolbachia per cell robust z, rep 1: 0.296; Wolbachia per cell robust z, rep 2: 0.137; Wolbachia per cell robust z, rep 3: -0.157; Call: inactive

What is on record for CG31342 #2?
Wolbachia per cell robust z, rep 1: -0.762; Wolbachia per cell robust z, rep 2: -0.154; Wolbachia per cell robust z, rep 3: 0.141; Call: inactive

With Best1 #1, how do the results read?
Wolbachia per cell robust z, rep 1: -0.112; Wolbachia per cell robust z, rep 2: -2.16; Wolbachia per cell robust z, rep 3: -5.94; Call: active

With Best1 #2, how do the results read?
Wolbachia per cell robust z, rep 1: 0.45; Wolbachia per cell robust z, rep 2: -0.257; Wolbachia per cell robust z, rep 3: -0.675; Call: inactive

What is on record for Plp #1?
Wolbachia per cell robust z, rep 1: -0.49; Wolbachia per cell robust z, rep 2: 0.591; Wolbachia per cell robust z, rep 3: 0.298; Call: inactive

How did the screen score Plp #2?
Wolbachia per cell robust z, rep 1: -0.974; Wolbachia per cell robust z, rep 2: -0.249; Wolbachia per cell robust z, rep 3: -1.73; Call: inactive

What is on record for Plp #3?
Wolbachia per cell robust z, rep 1: 0.225; Wolbachia per cell robust z, rep 2: 0.349; Wolbachia per cell robust z, rep 3: -0.066; Call: inactive

Quoted from the entries so far (2 entries):
Best1 #1: Wolbachia per cell robust z, rep 1 = -0.112; Wolbachia per cell robust z, rep 2 = -2.16; Wolbachia per cell robust z, rep 3 = -5.94; Call = active
Best1 #2: Wolbachia per cell robust z, rep 1 = 0.45; Wolbachia per cell robust z, rep 2 = -0.257; Wolbachia per cell robust z, rep 3 = -0.675; Call = inactive
